Test results from patent US9050376B2 (priority 2007, dated 2015).

Tests used:
B. anthracis = test system: B. anthracis; set-up: species or system A/J mice; settings: mouse, in vivo
[1] = set-up: species or system C57BL/6 mice; settings: mouse, in vivo, iv

For “MSA: mouse serum albumin, carrier control [reference compound]”, the “effect on survival / protection” value (B. anthracis) was “no significant difference” and the serum cytokine levels [1] was “little or no detectable cytokine levels”.
